What was measured:
[1] = target: HIV-1 clade C strain 426c Env on Env-pseudotyped virus produced in 293T cells (HIV-1); test: cell-based or functional assay
[2] = target: HIV-1 clade C strain 426c Env on Env-pseudotyped virus produced in 293s/GnTI-/- cells (Man5-enrichment) (HIV-1); test: cell-based or functional assay

“sCD4 (from UniProt P01730 26-396) (receptor)” showed an ID50/IC50 in TZM-bl [1] of over 25 µg/mL and an ID50/IC50 in TZM-bl [2] of over 25 µg/mL.
